Legend:
[1] = Antagonist activity at rat alpha6alpha3beta4 nAChR expressed in Xenopus laevis oocytes assessed as inhibition of Ach-induced response at -70 mV holding potential by two electrode voltage-clamp assay
[2] = Antagonist activity at mouse alpha1beta1epsilondelta nAChR expressed in Xenopus laevis oocytes assessed as inhibition of Ach-induced response at -70 mV holding potential by two electrode voltage-clamp assay

| Compound | IC50 [1] [nM] | IC50 [2] [nM] |
| --- | --- | --- |
| CC[C@H](C)[C@H](NC(=O)[C@H](CCCNC(=N)N)NC(=O)[C@H](CCCNC(=N)N)NC(=O)[C@H](CO)NC(=O)[C@H](Cc1ccc(O)cc1)NC(=O)[C@H](CCCNC(=N)N)NC(=O)[C@H](CCCNC(=N)N)NC(=O)[C@H](CCCNC(=N)N)NC(=O)[C@H](CCCNC(=N)N)NC(=O)[C@H](CC(=O)O)NC(=O)[C@H](Cc1ccc(O)cc1)NC(=O)[C@@H]1CCCN1C(=O)[C@H](CO)NC(=O)[C@H](CCCNC(=N)N)NC(=O)[C@@H]1CSSC[C@H](NC(=O)[C@@H](N)[C@@H](C)O)C(=O)N[C@@H](CCCNC(=N)N)C(=O)N[C@@H](CO)C(=O)N[C@@H](CO)C(=O)NCC(=O)N[C@@H](CCCNC(=N)N)C(=O)N[C@@H](Cc2ccc(O)cc2)C(=O)N1)C(=O)N[C@H](C(=O)N[C@@H](CC(=O)O)C(=O)N[C@@H](C)C(=O)N[C@@H](CO)C(=O)N[C@H](C(=O)O)C(C)C)[C@@H](C)O | 5570 | 2290 |
| CC[C@H](C)[C@H](NC(=O)[C@H](CCCNC(=N)N)NC(=O)[C@H](CCCNC(=N)N)NC(=O)[C@@H]1CSSC[C@H](NC(=O)[C@H](Cc2ccc(O)cc2)NC(=O)[C@H](CCCNC(=N)N)NC(=O)CNC(=O)[C@H](CO)NC(=O)[C@H](CO)NC(=O)[C@H](CCCNC(=N)N)NC(=O)[C@H](CO)NC(=O)[C@@H](N)[C@@H](C)O)C(=O)N[C@@H](CCCNC(=N)N)C(=O)N[C@@H](CO)C(=O)N2CCC[C@H]2C(=O)N[C@@H](Cc2ccc(O)cc2)C(=O)N[C@@H](CC(=O)O)C(=O)N[C@@H](CCCNC(=N)N)C(=O)N[C@@H](CCCNC(=N)N)C(=O)N[C@@H](CCCNC(=N)N)C(=O)N[C@@H](CCCNC(=N)N)C(=O)N[C@@H](Cc2ccc(O)cc2)C(=O)N1)C(=O)N[C@H](C(=O)N[C@@H](CC(=O)O)C(=O)N[C@@H](C)C(=O)N[C@@H](CO)C(=O)N[C@H](C(=O)O)C(C)C)[C@@H](C)O | 4360 | 1450 |
| CC[C@H](C)[C@@H]1NC(=O)[C@H](CCCNC(=N)N)NC(=O)[C@H](CCCNC(=N)N)NC(=O)[C@@H](NC(=O)[C@H](Cc2ccc(O)cc2)NC(=O)[C@H](CCCNC(=N)N)NC(=O)[C@H](CCCNC(=N)N)NC(=O)[C@H](CCCNC(=N)N)NC(=O)[C@H](CCCNC(=N)N)NC(=O)[C@H](CC(=O)O)NC(=O)[C@H](Cc2ccc(O)cc2)NC(=O)[C@@H]2CCCN2C(=O)[C@H](CO)NC(=O)[C@H](CCCNC(=N)N)NC(=O)[C@H](C)NC(=O)[C@H](Cc2ccc(O)cc2)NC(=O)[C@H](CCCNC(=N)N)NC(=O)CNC(=O)[C@H](CO)NC(=O)[C@H](CO)NC(=O)[C@H](CCCNC(=N)N)NC(=O)[C@H](C)NC(=O)[C@@H](N)[C@@H](C)O)CSSC[C@@H](C(=O)N[C@H](C(=O)O)C(C)C)NC(=O)[C@H](C)NC(=O)[C@H](CC(=O)O)NC(=O)[C@H]([C@@H](C)O)NC1=O | > 10000 | 1290 |
| CC[C@H](C)[C@@H]1NC(=O)[C@H](CCCNC(=N)N)NC(=O)[C@H](CCCNC(=N)N)NC(=O)[C@@H](NC(=O)[C@H](Cc2ccc(O)cc2)NC(=O)[C@H](CCCNC(=N)N)NC(=O)[C@H](CCCNC(=N)N)NC(=O)[C@H](CCCNC(=N)N)NC(=O)[C@H](CCCNC(=N)N)NC(=O)[C@H](CC(=O)O)NC(=O)[C@H](Cc2ccc(O)cc2)NC(=O)[C@@H]2CCCN2C(=O)[C@H](CO)NC(=O)[C@H](CCCNC(=N)N)NC(=O)[C@H](CO)NC(=O)[C@H](Cc2ccc(O)cc2)NC(=O)[C@H](CCCNC(=N)N)NC(=O)CNC(=O)[C@H](CO)NC(=O)[C@H](CO)NC(=O)[C@H](CCCNC(=N)N)NC(=O)[C@H](CO)NC(=O)[C@@H](N)[C@@H](C)O)CSSC[C@@H](C(=O)N[C@H](C(=O)O)C(C)C)NC(=O)[C@H](C)NC(=O)[C@H](CC(=O)O)NC(=O)[C@H]([C@@H](C)O)NC1=O | > 10000 | 1960 |

Reference: ChEMBL document CHEMBL4376895, “Structure and Activity Studies of Disulfide-Deficient Analogues of αO-Conotoxin GeXIVA” (J Med Chem, 2020)
